Pooled drug test results. Numbers come from NIAID ChemDB, via PubChem.

Shared fields: cytotoxicity tests; endpoint: CC50

Rows are shuffled and stem from different studies. Blank or dashed fields: not listed here. CCn: concentration that lowers growth or viability of the cells by n%. a–b is a range or a potency band.

structure,cell line,read by,value
COc1ccc(NCc2cc3ccccc3oc2=O)cc1,Ava5,MTS,110 µM
CC(C)C[C@@H]1NC(=O)[C@H](Cc2c[nH]c3ccccc23)NC(=O)[C@@H](CCCCN)NC(=O)[C@H](CCCCN)NC(=O)[C@H](C(C)C)NC(=O)[C@@H](CC(C)C)NC1=O,Lung carcinoma cells,MTT,>30 µM
Cc1cc(=O)oc2cc(OCc3cn(Cc4cc(=O)oc5ccc(Cl)cc45)nn3)ccc12,V79,MTT,44.24 µg/mL
O=C(NCCc1ccc2c(n1)NCCC2)Nc1ccc(Cl)cc1F,PBMC,-,7 µM
CCN([C@H](CO)CCC[C@H](C)NC(=O)[C@H](Cc1ccccc1Cl)NC(=O)OC)S(=O)(=O)c1ccc(CO)cc1,T lymphoid cells,microscopy,>10 µM
C#Cc1cn([C@@H]2O[C@H](CO)[C@@H](O)C2(F)F)c2ncnc(N)c12,Replicon cells,XTT,10.94 µM
NC1=NC2C(C=CN2CC(CO)CCO)C(=O)N1,TPA-stimulated BCBL-1,-,165 µM
O=c1oc2ccccc2cc1CNc1ccc(Br)cc1Cl,Ava5,MTS,152 µM
COc1cc(NC(=O)NCCc2ccc3c(n2)NCCC3)cc(OC)c1OC,PBMC,-,7.4 µM
Cc1nc(C)c(-c2n[nH]c(=S)n2C23CC4CC(CC(C4)C2)C3)s1,143B,MTT,>100 µM
Nc1ncnc2c1c(-c1ccsc1)cn2[C@H]1O[C@H](CO)[C@@H](O)C1(F)F,Replicon cells,XTT,40.45 µM
Cc1cn([C@H]2C[C@H](F)C(COP(=O)([O-])OP(=O)([O-])OC[C@H]3O[C@@H](n4cc(C)c(=O)[nH]c4=S)C[C@@H]3F)O2)c(=S)[nH]c1=O,CEM-T4,MTT,>100 µM
CN(C)C(=O)c1ccc2ncnc(Nc3ccc(N4CCOCC4)cc3)c2c1,HUH 9B,-,>25 µM
Cc1nc2c(OC(F)F)cccc2n1-c1ccc(C(=O)NC2CC2)s1,Kidney epithelial cells,resazurin,>62 µM
CC[C@@H](CCC[C@@H](CO)N(CCC(C)C)S(=O)(=O)c1ccc(N)c(F)c1)NC(=O)[C@@H](NC(=O)OC)C(c1ccccc1)c1ccccc1,T lymphoid cells,microscopy,>10 µM
Cc1cccc(NC(=O)NCC2CCc3ccccc3N2)c1,PBMC,-,50 µM
Cc1ccccc1-c1ccc2ncnc(Nc3ccc(N4CCOCC4)cc3)c2c1,HUH 9B,-,>25 µM
CC(C)C[C@@H]1NC(=O)[C@H](Cc2ccc(O)cc2)NC(=O)[C@@H](CCCCN)NC(=O)[C@H](CC(N)=O)NC(=O)[C@H](C(C)C)NC(=O)[C@@H](CC(C)C)NC1=O,Lung carcinoma cells,MTT,>30 µM
Clc1nnnc2c1C1=C(CCC/C1=C\c1ccncc1)C(c1ccncc1)S2,MGC-803,MTT,12.4 µM
O=c1oc2ccccc2cc1CNc1cccc([N+](=O)[O-])c1,Ava5,MTS,>200 µM
CN1CCN(Cc2ccc(-c3ccc4ncnc(Nc5ccc(N6CCOCC6)cc5)c4c3)o2)CC1,HUH 9B,-,>25 µM
S=c1[nH]c2c(c(=S)[nH]1)C1=C(CCC/C1=C\c1ccncc1)C(c1ccncc1)S2,CNE-2,MTT,15.1 µM
CC[C@@H](CCC[C@@H](CO)N(CCCF)S(=O)(=O)c1ccc(N)cc1)NC(=O)[C@@H](NC(=O)OC)C(c1ccccc1)c1ccccc1,T lymphoid cells,microscopy,>10 µM
CC[C@@H](C)[C@@H]1NC(=O)[C@@H](CC(C)C)NC(=O)[C@H](CC(C)C)NC(=O)[C@H](Cc2c[nH]c3ccccc23)NC(=O)[C@@H](CCCN)NC(=O)[C@H](COC(C)(C)C)NC1=O,Hep2G,luminescence,>100 µM
CC(C)N(c1ccc(N2CCOCC2)cc1)c1ncnc2ccc(-c3cccs3)cc12,HUH 9B,-,>25 µM
Cc1nc(C)c(C(=O)NNC(=S)NC23CC4CC(CC(C4)C2)C3)s1,KBALB,MTT,>100 µM
CC(=O)OC(C(C)C(C)C(C)(C)O)C1OC12C(O)CC1C3CCC4CC(=O)CCC4C3CCC12CO,P-388,MTT,>50 µg/mL
O=C(NCCc1ccc2c(n1)NCCCC2)NCc1ccc(Cl)c(Cl)c1,PBMC,-,50 µM
O=c1[nH]c(=O)n([C@@H]2C[C@@H](O)[C@H](CO)O2)cc1/C=C/Br,HEL 299,-,>200 µM
CC(C)C[C@@H]1NC(=O)[C@H](Cc2c[nH]c3ccccc23)NC(=O)[C@@H](CCCCN)NC(=O)[C@H](C)NC(=O)[C@H](C(C)C)NC(=O)[C@@H](CC(C)C)NC1=O,Colorectal carcinoma,MTT,>30 µM
C#Cc1cn([C@@H]2O[C@H](CO)[C@@H](O)[C@H]2F)c2ncnc(N)c12,Replicon cells,XTT,21.9 µM
COC(=O)N[C@@H](Cc1ccccc1Cl)C(=O)N[C@H](CCC[C@@H](CO)N(CCC(C)C)S(=O)(=O)c1ccc(CO)cc1)C1CC1,T lymphoid cells,microscopy,>10 µM
CC(C)C[C@@H]1NC(=O)[C@H](Cc2c[nH]c3ccccc23)NC(=O)CNC(=O)[C@H](CC(N)=O)NC(=O)[C@H](C(C)C)NC(=O)[C@H](CC(C)C)NC1=O,Lung carcinoma cells,MTT,>30 µM
CCN1CCC(O)(/C=C/c2ccc(Cl)cc2)C(C(=O)/C=C/c2ccc(Cl)cc2)C1,55 different human tumor cells,-,12.01 µg/mL
COc1cccc2c1C(=O)c1c(O)c3c(c(O)c1C2=O)C[C@@](O)(C(=O)CO)C[C@@H]3O[C@H]1C[C@H](N)[C@H](O)[C@H](C)O1,V79,MTT,0.19 µM
CC(C)C[C@@H]1NC(=O)[C@H](Cc2c[nH]c3ccccc23)NC(=O)[C@@H](CCCN)NC(=O)[C@@H](CCCN)NC(=O)[C@H](C(C)C)NC(=O)[C@@H](CC(C)C)NC1=O,Hep2G,luminescence,>100 µM
O=c1[nH]c(=O)n([C@H]2CO[C@@H](CO)O2)cc1/C=C/Br,HEL 299,-,>200 µM
CC(C)C[C@@H]1NC(=O)[C@@H](CC(C)C)NC(=O)[C@H](Cc2c[nH]c3ccccc23)NC(=O)CNC(=O)[C@H](CC(N)=O)NC(=O)[C@@H](C(C)C)NC1=O,Lung carcinoma cells,MTT,>30 µM
Cc1nc(C)c(-c2n[nH]c(=S)n2-c2ccc3ccccc3c2)s1,KBALB,MTT,>100 µM
Nc1ncnc2c1c(-c1ccoc1)cn2[C@@H]1O[C@H](CO)[C@@H](O)[C@H]1F,Replicon cells,XTT,>44 µM
CCOC1N=C2C3=C(N=CN2N1c1ccccc1)SC(c1ccncc1)C1=C3/C(=C/c2ccncc2)CCC1,KB,MTT,12.5 µM
Nc1ncnc2c1c(-c1cccs1)cn2[C@H]1O[C@H](CO)[C@@H](O)C1(F)F,Replicon cells,XTT,18.91 µM
CCOC1N=C2C3=C(N=C(C)N2N1c1ccccc1)SC(c1ccncc1)C1=C3/C(=C/c2ccncc2)CCC1,MCF-7,MTT,13.4 µM
CSC1NN=C(c2sc(C)nc2C)N1C1C2CC3CC(C2)CC1C3,KBALB,MTT,<100 µM
Nc1ncnc2c1c(-c1ccoc1)cn2[C@H]1O[C@H](CO)[C@@H](O)C1(F)F,Replicon cells,XTT,>44 µM
Cn1ccc2c(NC(=O)NCCc3ccc4c(n3)NCCC4)cccc21,PBMC,-,0.4 µM
N#CC1=C(N)SC(c2ccncc2)C2=C1/C(=C/c1ccncc1)CCC2,KB,MTT,>50 µM
CC(C)(C)OC(=O)NCc1cccc(-c2ccc3ncnc(Nc4ccc(N5CCOCC5)cc4)c3c2)c1,HUH 9B,-,10–25 µM
CCCCN1C(c2sc(C)nc2C)=NNC1SC,KBALB,MTT,>100 µM
O=C(CCCCCCCCc1ccccc1)c1c(O)cccc1O,BC,resazurin,>60 µg/mL
Nc1ncnc2c1c(-c1cccs1)cn2[C@@H]1O[C@H](CO)[C@@H](O)[C@H]1F,Replicon cells,XTT,>44 µM
N=c1c2c(ncn1Nc1ccccc1)SC(c1ccncc1)C1=C2/C(=C/c2ccncc2)CCC1,MCF-7,MTT,12.8 µM
O=C(NCCc1ccc2c(n1)NCCC2)Nc1ccc(Cl)c(C(F)(F)F)c1,PBMC,-,3.7 µM
CC(C)(C)OC(=O)Nc1cccc(-c2ccc3ncnc(Nc4ccc(N5CCOCC5)cc4)c3c2)c1,HUH 9B,-,>25 µM
CCC(C)C1NC(=O)[C@H](CC(C)C)NC(=O)[C@H](Cc2c[nH]c3ccccc23)NC(=O)[C@@H](CCCN)NC(=O)[C@H](CC(N)=O)NC(=O)[C@H](C(C)C)NC1=O,Hep2G,luminescence,>100 µM
Cc1cccc(C)c1NCc1cc2ccccc2oc1=O,Ava5,MTS,152 µM
COc1cc([C@@H]2CCc3ccc(O)cc3O2)ccc1O,BC,resazurin,>20 µg/mL
CCCc1c([Se]c2ccccc2)n(COCCOP(=O)([O-])OP(=O)([O-])OCC2O[C@@H](n3cc(C)c(=O)[nH]c3=S)C[C@@H]2F)c(=O)[nH]c1=O,CEM-T4,MTT,>100 µM
CC(C)NC(=O)NCCc1ccc2c(n1)NCCC2,PBMC,-,50 µM
Nc1nc2c(ncn2COC(CO)CO)c(=O)[nH]1,CD4+ T lymphocytes,-,61 µM
CC(C)CCN([C@H](CO)CCC[C@@H](NC(=O)[C@@H](N)C(c1ccc(F)cc1)c1ccc(F)cc1)C1CC1)S(=O)(=O)c1ccc([C@@H](C)O)cc1,T lymphoid cells,microscopy,>10 µM
O=c1[nH]c(=O)n([C@H]2C[C@H](O)[C@@H](CO)O2)cc1/C=C/Br,TPA-stimulated BCBL-1,-,105 µM
CCOC(=O)c1[nH]c2c(c1N)C1=C(CCC/C1=C\c1ccncc1)C(c1ccncc1)S2,MGC-803,MTT,>50 µM
Nc1nc2c(ncn2[C@@H]2C[C@H](CO)[C@H]2CO)c(=O)[nH]1,CD4+ T lymphocytes,-,6.4 µM
COC1(OC)CCC2(C)C(CCC3C2CCC2(COC(C)=O)C3CC(O)C23OC3C(OC(C)=O)C(C)C(C)C(C)(C)O)C1,P-388,MTT,>50 µg/mL
CCCN([C@H](CO)CCC[C@@H](NC(=O)[C@@H](NC(=O)OC)C(c1ccccc1)c1ccccc1)C(F)(F)F)S(=O)(=O)c1ccc(CO)cc1,T lymphoid cells,microscopy,>10 µM
CC(C)C[C@@H]1NC(=O)[C@H](Cc2c[nH]c3ccccc23)NC(=O)[C@@H](CCCN)NC(=O)[C@H](CC(N)=O)NC(=O)[C@H](C)NC(=O)[C@@H](CC(C)C)NC1=O,Hep2G,luminescence,>100 µM
CC(C)C[C@@H]1NC(=O)[C@H](Cc2c[nH]c3ccccc23)NC(=O)[C@@H](CCCN)NC(=O)[C@H](CC(N)=O)NC(=O)[C@H](C(C)C)NC(=O)[C@@H](CC(C)C)NC1=O,Colorectal carcinoma,MTT,>30 µM
C#C[C@@H](CCC[C@@H](CO)N(CCC(C)C)S(=O)(=O)c1ccc(CO)cc1)NC(=O)[C@@H](NC(=O)OC)C(c1ccccc1)c1ccccc1,T lymphoid cells,microscopy,>10 µM
CCCCN1C(c2sc(C)nc2C)=NNC1SCc1ccc(C(F)(F)F)cc1,143B,MTT,>100 µM
CC(C)C[C@@H]1NC(=O)[C@H](Cc2c[nH]c3ccccc23)NC(=O)[C@@H](CCCNC(N)=O)NC(=O)[C@H](CC(N)=O)NC(=O)[C@H](C(C)C)NC(=O)[C@@H](CC(C)C)NC1=O,Lung carcinoma cells,MTT,>30 µM
Nc1ncnc2c1c(-c1ccco1)cn2[C@@H]1O[C@H](CO)[C@@H](O)C1(F)F,Replicon cells,XTT,37.06 µM
O=C(NCCc1ccc2c(n1)NCCC2)Nc1cc(F)cc(F)c1,PBMC,-,14 µM
O=C1CCn2c(nc3c(c2=S)C2=C(CCC/C2=C\c2ccncc2)C(c2ccncc2)S3)S1,CNE-2,MTT,42.2 µM

The last 8 rows once more:

structure,cell line,read by,value
CC(C)C[C@@H]1NC(=O)[C@H](Cc2c[nH]c3ccccc23)NC(=O)[C@@H](CCCN)NC(=O)[C@H](CC(N)=O)NC(=O)[C@H](C)NC(=O)[C@@H](CC(C)C)NC1=O,Hep2G,luminescence,>100 µM
CC(C)C[C@@H]1NC(=O)[C@H](Cc2c[nH]c3ccccc23)NC(=O)[C@@H](CCCN)NC(=O)[C@H](CC(N)=O)NC(=O)[C@H](C(C)C)NC(=O)[C@@H](CC(C)C)NC1=O,Colorectal carcinoma,MTT,>30 µM
C#C[C@@H](CCC[C@@H](CO)N(CCC(C)C)S(=O)(=O)c1ccc(CO)cc1)NC(=O)[C@@H](NC(=O)OC)C(c1ccccc1)c1ccccc1,T lymphoid cells,microscopy,>10 µM
CCCCN1C(c2sc(C)nc2C)=NNC1SCc1ccc(C(F)(F)F)cc1,143B,MTT,>100 µM
CC(C)C[C@@H]1NC(=O)[C@H](Cc2c[nH]c3ccccc23)NC(=O)[C@@H](CCCNC(N)=O)NC(=O)[C@H](CC(N)=O)NC(=O)[C@H](C(C)C)NC(=O)[C@@H](CC(C)C)NC1=O,Lung carcinoma cells,MTT,>30 µM
Nc1ncnc2c1c(-c1ccco1)cn2[C@@H]1O[C@H](CO)[C@@H](O)C1(F)F,Replicon cells,XTT,37.06 µM
O=C(NCCc1ccc2c(n1)NCCC2)Nc1cc(F)cc(F)c1,PBMC,-,14 µM
O=C1CCn2c(nc3c(c2=S)C2=C(CCC/C2=C\c2ccncc2)C(c2ccncc2)S3)S1,CNE-2,MTT,42.2 µM